Target: Genome polyprotein (Hepatitis C virus genotype 1a (isolate H) (HCV), UniProt P27958)

Chains of the proteins cited; added tags and fusions are not shown.
UniProt P27958, whole entry, looked up: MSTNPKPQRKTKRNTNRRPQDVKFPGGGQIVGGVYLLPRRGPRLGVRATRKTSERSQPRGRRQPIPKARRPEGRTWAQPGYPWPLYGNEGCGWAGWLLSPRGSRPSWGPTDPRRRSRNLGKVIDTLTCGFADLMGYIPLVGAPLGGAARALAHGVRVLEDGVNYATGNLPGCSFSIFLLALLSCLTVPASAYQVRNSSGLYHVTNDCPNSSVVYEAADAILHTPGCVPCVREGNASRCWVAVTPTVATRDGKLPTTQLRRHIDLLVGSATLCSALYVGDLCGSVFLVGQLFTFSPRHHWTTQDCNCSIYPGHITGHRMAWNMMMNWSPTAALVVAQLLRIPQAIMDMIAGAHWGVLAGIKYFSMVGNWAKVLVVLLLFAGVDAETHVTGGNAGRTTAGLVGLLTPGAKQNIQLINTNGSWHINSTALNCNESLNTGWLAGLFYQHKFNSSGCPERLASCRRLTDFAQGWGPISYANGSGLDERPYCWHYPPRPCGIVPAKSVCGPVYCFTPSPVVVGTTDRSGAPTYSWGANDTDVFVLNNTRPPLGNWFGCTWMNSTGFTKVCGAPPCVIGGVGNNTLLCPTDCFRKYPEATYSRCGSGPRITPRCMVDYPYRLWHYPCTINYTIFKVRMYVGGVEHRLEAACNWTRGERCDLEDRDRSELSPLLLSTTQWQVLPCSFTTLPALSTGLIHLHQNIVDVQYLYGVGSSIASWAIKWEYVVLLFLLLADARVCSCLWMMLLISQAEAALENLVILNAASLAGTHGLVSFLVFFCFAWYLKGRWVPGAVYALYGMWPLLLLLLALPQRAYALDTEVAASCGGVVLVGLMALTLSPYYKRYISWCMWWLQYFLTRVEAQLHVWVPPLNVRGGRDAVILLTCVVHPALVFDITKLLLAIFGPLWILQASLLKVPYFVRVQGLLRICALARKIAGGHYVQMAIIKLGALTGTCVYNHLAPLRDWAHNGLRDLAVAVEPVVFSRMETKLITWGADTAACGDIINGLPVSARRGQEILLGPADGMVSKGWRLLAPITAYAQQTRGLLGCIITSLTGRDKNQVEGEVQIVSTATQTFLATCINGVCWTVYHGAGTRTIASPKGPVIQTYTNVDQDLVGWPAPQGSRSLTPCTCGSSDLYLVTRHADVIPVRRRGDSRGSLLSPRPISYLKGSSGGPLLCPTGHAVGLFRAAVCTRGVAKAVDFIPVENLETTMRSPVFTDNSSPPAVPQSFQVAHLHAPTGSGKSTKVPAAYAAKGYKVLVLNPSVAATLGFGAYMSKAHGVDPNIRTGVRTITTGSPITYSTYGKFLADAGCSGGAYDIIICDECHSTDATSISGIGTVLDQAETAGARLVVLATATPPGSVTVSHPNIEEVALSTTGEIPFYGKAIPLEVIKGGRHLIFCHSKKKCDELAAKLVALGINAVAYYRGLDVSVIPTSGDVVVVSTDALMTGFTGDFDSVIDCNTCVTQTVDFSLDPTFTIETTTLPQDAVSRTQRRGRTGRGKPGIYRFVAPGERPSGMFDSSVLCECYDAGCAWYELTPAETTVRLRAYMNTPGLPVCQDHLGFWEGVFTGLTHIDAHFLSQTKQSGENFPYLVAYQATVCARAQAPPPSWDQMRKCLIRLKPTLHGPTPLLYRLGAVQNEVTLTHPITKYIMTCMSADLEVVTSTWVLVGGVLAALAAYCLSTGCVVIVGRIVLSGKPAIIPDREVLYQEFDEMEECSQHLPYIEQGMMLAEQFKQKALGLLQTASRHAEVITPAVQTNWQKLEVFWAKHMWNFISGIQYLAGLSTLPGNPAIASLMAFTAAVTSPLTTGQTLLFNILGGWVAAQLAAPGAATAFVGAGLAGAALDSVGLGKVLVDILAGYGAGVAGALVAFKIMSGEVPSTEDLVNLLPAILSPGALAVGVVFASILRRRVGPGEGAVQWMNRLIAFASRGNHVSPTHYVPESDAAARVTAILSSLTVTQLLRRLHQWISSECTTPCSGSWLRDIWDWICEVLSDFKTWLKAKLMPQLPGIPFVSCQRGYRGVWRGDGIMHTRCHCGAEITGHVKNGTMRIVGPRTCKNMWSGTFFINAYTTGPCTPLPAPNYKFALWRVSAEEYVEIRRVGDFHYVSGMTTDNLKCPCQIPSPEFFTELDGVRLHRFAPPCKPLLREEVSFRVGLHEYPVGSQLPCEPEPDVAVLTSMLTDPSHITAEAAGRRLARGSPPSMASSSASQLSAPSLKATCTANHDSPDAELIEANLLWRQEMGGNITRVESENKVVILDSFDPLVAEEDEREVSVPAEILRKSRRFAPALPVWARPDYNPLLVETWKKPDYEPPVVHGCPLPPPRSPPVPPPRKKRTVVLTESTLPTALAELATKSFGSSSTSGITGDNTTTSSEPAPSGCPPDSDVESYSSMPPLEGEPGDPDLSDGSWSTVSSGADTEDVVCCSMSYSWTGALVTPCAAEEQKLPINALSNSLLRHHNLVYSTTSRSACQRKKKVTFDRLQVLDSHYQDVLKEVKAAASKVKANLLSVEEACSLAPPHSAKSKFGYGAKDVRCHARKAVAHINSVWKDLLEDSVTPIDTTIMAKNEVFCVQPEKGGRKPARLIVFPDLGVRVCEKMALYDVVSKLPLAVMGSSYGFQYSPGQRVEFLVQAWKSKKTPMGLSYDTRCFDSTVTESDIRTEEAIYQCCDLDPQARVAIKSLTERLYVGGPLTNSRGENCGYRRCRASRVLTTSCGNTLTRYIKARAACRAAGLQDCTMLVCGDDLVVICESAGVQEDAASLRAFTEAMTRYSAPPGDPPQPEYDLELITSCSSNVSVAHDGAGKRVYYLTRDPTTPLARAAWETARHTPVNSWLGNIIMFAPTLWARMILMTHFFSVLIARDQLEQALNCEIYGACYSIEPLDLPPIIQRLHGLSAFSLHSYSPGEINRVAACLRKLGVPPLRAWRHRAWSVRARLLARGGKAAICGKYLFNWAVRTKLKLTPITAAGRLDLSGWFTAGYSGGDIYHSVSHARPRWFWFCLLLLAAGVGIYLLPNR

`CCOc1nc(N)nc2c1ncn2[C@@H]1O[C@@H]2COP(=O)(C(C)C)OC2[C@@]1(C)F` (stereo partly specified) was tested, and the Ki was 30 nM.
